{"source": "PubChem BioAssay AID1259414 (Drosophila RNAi Screening Center, 2018)", "aim": "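Host factors increasing or decreasing Wolbachia levels in cultured fly cells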 (primary screen)", "cells": "Drosophila JW18 cells infected with Wolbachia", "knock-down reagent": "long dsRNA against Drosophila genes, 0.25 µg dsRNA per well of a 384-well plate", "duration": "5 days", "treatment": "cells persistently infected with Wolbachia before knock-down; no added drug", "detection": "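Automated imaging of bacterial rRNA staining divided by host cell count, reported as plate-normalised robust z-score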", "scale": "Wolbachia per cell robust z: higher = more Wolbachia per host cell than the plate typical", "active means": "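Hit when robust z is 1.5 or more, or -1.5 or less, in at least two of three replicates; excludes dsRNAs with several or no targets, genes not expressed in JW18 and well A1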", "note": "In all, the deposit lists about 24,000 reagents; this is an unselected part of those that have a named target and a result. Of all reagents, about 1,210 (5%) got an active call. 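Inactive calls also include excluded dsRNAs with several or no targets, genes unexpressed in JW18, and well A1, regardless of score.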 Entries without a mark were called inactive. The numbers tell different reagents against one gene apart."}
{"gene": "endos", "reagent no.": 1, "Wolbachia per cell robust z, rep 1": -0.838, "Wolbachia per cell robust z, rep 2": -0.0898, "Wolbachia per cell robust z, rep 3": -6.95}
{"gene": "endos", "reagent no.": 2, "Wolbachia per cell robust z, rep 1": 0.375, "Wolbachia per cell robust z, rep 2": 0.979, "Wolbachia per cell robust z, rep 3": 0.91}
{"gene": "pzg", "reagent no.": 1, "Wolbachia per cell robust z, rep 1": 0.975, "Wolbachia per cell robust z, rep 2": 1.04, "Wolbachia per cell robust z, rep 3": -3.13}
{"gene": "pasha", "reagent no.": 1, "Wolbachia per cell robust z, rep 1": -0.071, "Wolbachia per cell robust z, rep 2": -0.108, "Wolbachia per cell robust z, rep 3": -1.45}
{"gene": "pasha", "reagent no.": 2, "Wolbachia per cell robust z, rep 1": -0.281, "Wolbachia per cell robust z, rep 2": 1.5, "Wolbachia per cell robust z, rep 3": 1.25}
{"gene": "regucalcin", "reagent no.": 1, "Wolbachia per cell robust z, rep 1": 0.818, "Wolbachia per cell robust z, rep 2": -1.11, "Wolbachia per cell robust z, rep 3": 0.142}
{"gene": "regucalcin", "reagent no.": 2, "Wolbachia per cell robust z, rep 1": -1.74, "Wolbachia per cell robust z, rep 2": -0.0912, "Wolbachia per cell robust z, rep 3": -0.82}
{"gene": "MED7", "reagent no.": 1, "Wolbachia per cell robust z, rep 1": 0.768, "Wolbachia per cell robust z, rep 2": 0.774, "Wolbachia per cell robust z, rep 3": 1.36}
{"gene": "MED7", "reagent no.": 2, "Wolbachia per cell robust z, rep 1": 2.15, "Wolbachia per cell robust z, rep 2": 0.738, "Wolbachia per cell robust z, rep 3": 1.24}
{"gene": "Vajk2", "reagent no.": 1, "Wolbachia per cell robust z, rep 1": -1.06, "Wolbachia per cell robust z, rep 2": -0.88, "Wolbachia per cell robust z, rep 3": -1.35}
{"gene": "Vajk2", "reagent no.": 2, "Wolbachia per cell robust z, rep 1": -0.851, "Wolbachia per cell robust z, rep 2": -0.867, "Wolbachia per cell robust z, rep 3": -0.083}
{"gene": "CG33928", "reagent no.": 1, "Wolbachia per cell robust z, rep 1": 2.07, "Wolbachia per cell robust z, rep 2": 0.708, "Wolbachia per cell robust z, rep 3": 1.55}
{"gene": "CG34245", "reagent no.": 1, "Wolbachia per cell robust z, rep 1": -0.904, "Wolbachia per cell robust z, rep 2": 0.0659, "Wolbachia per cell robust z, rep 3": 0.213}
{"gene": "CG4666", "reagent no.": 1, "Wolbachia per cell robust z, rep 1": -3.09, "Wolbachia per cell robust z, rep 2": 0.824, "Wolbachia per cell robust z, rep 3": 0.529}
{"gene": "CG33263", "reagent no.": 1, "Wolbachia per cell robust z, rep 1": 0.668, "Wolbachia per cell robust z, rep 2": -1.06, "Wolbachia per cell robust z, rep 3": 0.462}
{"gene": "CG6628", "reagent no.": 1, "Wolbachia per cell robust z, rep 1": 0.609, "Wolbachia per cell robust z, rep 2": 2.05, "Wolbachia per cell robust z, rep 3": 0.933}
{"gene": "CG43902", "reagent no.": 1, "Wolbachia per cell robust z, rep 1": -2.37, "Wolbachia per cell robust z, rep 2": -0.194, "Wolbachia per cell robust z, rep 3": 0.268}
{"gene": "CG43902", "reagent no.": 2, "Wolbachia per cell robust z, rep 1": 0.776, "Wolbachia per cell robust z, rep 2": -0.385, "Wolbachia per cell robust z, rep 3": -3.13}
{"gene": "CG43902", "reagent no.": 3, "Wolbachia per cell robust z, rep 1": 2.6, "Wolbachia per cell robust z, rep 2": 0.267, "Wolbachia per cell robust z, rep 3": 0.611}
{"gene": "CG43902", "reagent no.": 4, "Wolbachia per cell robust z, rep 1": -0.271, "Wolbachia per cell robust z, rep 2": -0.896, "Wolbachia per cell robust z, rep 3": -0.00265}
{"gene": "CG43902", "reagent no.": 5, "Wolbachia per cell robust z, rep 1": -1.31, "Wolbachia per cell robust z, rep 2": -1.97, "Wolbachia per cell robust z, rep 3": -0.908}
{"gene": "APP-BP1", "reagent no.": 1, "Wolbachia per cell robust z, rep 1": 0.124, "Wolbachia per cell robust z, rep 2": 1.42, "Wolbachia per cell robust z, rep 3": -0.158}
{"gene": "CG10638", "reagent no.": 1, "Wolbachia per cell robust z, rep 1": 0.0565, "Wolbachia per cell robust z, rep 2": -7.02, "Wolbachia per cell robust z, rep 3": -0.722}
{"gene": "CG10638", "reagent no.": 2, "Wolbachia per cell robust z, rep 1": -1.32, "Wolbachia per cell robust z, rep 2": -1.02, "Wolbachia per cell robust z, rep 3": 0.289}
{"gene": "Alg10", "reagent no.": 1, "Wolbachia per cell robust z, rep 1": 0.0757, "Wolbachia per cell robust z, rep 2": -1.45, "Wolbachia per cell robust z, rep 3": 0.302}
{"gene": "cyp33", "reagent no.": 1, "Wolbachia per cell robust z, rep 1": -1.33, "Wolbachia per cell robust z, rep 2": -0.231, "Wolbachia per cell robust z, rep 3": -0.735}
{"gene": "Mst87F", "reagent no.": 1, "Wolbachia per cell robust z, rep 1": -5.48, "Wolbachia per cell robust z, rep 2": -1.08, "Wolbachia per cell robust z, rep 3": -0.638}
{"gene": "Mst87F", "reagent no.": 2, "Wolbachia per cell robust z, rep 1": -1.25, "Wolbachia per cell robust z, rep 2": -1.48, "Wolbachia per cell robust z, rep 3": 0.858}
{"gene": "CG17528", "reagent no.": 1, "Wolbachia per cell robust z, rep 1": -0.773, "Wolbachia per cell robust z, rep 2": 0.00243, "Wolbachia per cell robust z, rep 3": 0.73}
{"gene": "cal1", "reagent no.": 1, "Wolbachia per cell robust z, rep 1": -0.959, "Wolbachia per cell robust z, rep 2": 0.997, "Wolbachia per cell robust z, rep 3": 0.964}

A run of entries taken from the entries so far:
{"gene": "MED7", "reagent no.": 2, "Wolbachia per cell robust z, rep 1": 2.15, "Wolbachia per cell robust z, rep 2": 0.738, "Wolbachia per cell robust z, rep 3": 1.24}
{"gene": "Vajk2", "reagent no.": 1, "Wolbachia per cell robust z, rep 1": -1.06, "Wolbachia per cell robust z, rep 2": -0.88, "Wolbachia per cell robust z, rep 3": -1.35}
{"gene": "Vajk2", "reagent no.": 2, "Wolbachia per cell robust z, rep 1": -0.851, "Wolbachia per cell robust z, rep 2": -0.867, "Wolbachia per cell robust z, rep 3": -0.083}
